Drawing on ChEMBL document CHEMBL1157539, “Thousands of chemical starting points for antimalarial lead identification” (Nature, 2010), this text covers XC50 for 1 compound.

The subject of this test is Plasmodium falciparum. Kind of test: GSK_TCMDC: Inhibition of Plasmodium falciparum 3D7 in whole erythrocytes, using parasite LDH activity as an index of growth. It is filed as functional, organism-based.

The compound `COc1cc(C(=O)NC(SC2=NCCS2)C(Cl)(Cl)Cl)cc(OC)c1OC` (stereo unspecified) registered an XC50 of 984 nM.
